This is an account of results in paper PMC10877727.

For at least one entry, the source does not settle the construct or the ends of the probe. The comparison behind a weaker result is the experiment's own reference, which may not be listed here. At least one verdict was read from the data and is not stated in words by the source.

Data set [1] has as its target TraN_G47A-G48A (Enterococcus faecalis plasmid pIP501) (UniProt Q7BVV5). Nature of the data set: MST. Conditions: Kd in low micromolar range, value only in Figure 4B; MST in PBS-T (pH and temperature not stated); 50 nM RED-tris-NTA labelled His-protein, dsDNA 0.781 nM to 12.8 uM; Monolith NT.115, 60% LED and MST power; recombinant protein; residues 1-122; protein details: N-terminal 7xHis (pQTEV).

Data set [2] deals with TraN_R23A-N24A-Q28A (Enterococcus faecalis plasmid pIP501) (UniProt Q7BVV5). Nature of the data set: MST. Conditions: Kd in low micromolar range, value only in Figure 4B; MST in PBS-T (pH and temperature not stated); 50 nM RED-tris-NTA labelled His-protein, dsDNA 0.781 nM to 12.8 uM; Monolith NT.115, 60% LED and MST power; recombinant protein; residues 1-122; protein details: N-terminal 7xHis (pQTEV).

For the sequence “AGGGCGCACTTATACGCAGTAACTTCGTTACTTC (double strand) [random DNA 34-mer]”, the binding result in data set [1] and in data set [2] was “binds more weakly” each time.
